From patent US9988341B2, “Bacterial topoisomerase inhibitors and use thereof” (THE FLORIDA INTERNATIONAL UNIVERSITY BOARD OF TRUSTEES, priority 2016, dated 2018)

System: Mtb CDC1551 Mtb::lux
Assay type: cell-based, M. tuberculosis
Conditions: ratio CC50 / IC50

Compound	SI
CCCC[C@@H](CN[C@H](CN)CCCCNC)NCc1cccc2ccccc12 [Compound 2471-12, (S)—N6-methyl-N2-((S)-2-(naphthalen-1-ylmethylamino)hexyl)hexane-1,2,6-triamine]	15.4
CCCC[C@@H](CN[C@H](CN)CCN)NCc1cccc2ccccc12 [Compound 2471-24, (S)—N2-((S)-2-(naphthalen-1-ylmethylamino)hexyl)butane-1,2,4-triamine]	12
CCCC[C@@H](CN[C@@H](CN)CCCCNC)NCc1cccc2ccccc12 [Compound 2471-36]	11.2
